Legend:
[1] = tested on: HIV-1 Env-pseudoviruses (30-strain panel); assay: Neutralization assay, cross-clade 30-strain panel (Env-pseudoviruses, TZM-bl target cells); assay type: cell-based; details: Human immunodeficiency virus 1, TZM-bl, A03349M1.vrc4a (Clade D)
Method: Neutralization was measured using single-round-of-infection HIV-1 Env-pseudoviruses and TZM-bl target cells (ARP Cat No. #8129)[44],[45]. Compounds were prepared at 400 μM with 4% DMSO (dimethyl sulfoxide) in PBS (phosphate-buffered saline) and diluted 20 times as the starting concentration for serial dilution in the neutralization assays. […] After incubation at 37 °C for 2 days, infection of target cells was measured by luciferase activity. Neutralization curves were fit by nonlinear regression using a five-parameter hill slope equation[45].

[2] = tested on: HIV-1 Env-pseudoviruses (208-strain panel); details: A03349M1.vrc4a, clade D; cited from earlier work

SMILES | IC50 [1] [nM] | IC50 [2] [nM]
COc1cnc(-c2csc(C(=O)NCCO)n2)c2[nH]cc(C(=O)C(=O)N3CCC(=C(C#N)c4ccccc4)CC3)c12 [BMS-818251] | < 0.3 | 
O=C(C(=O)N1CCN(C(=O)c2ccccc2)CC1)c1c[nH]c2c(F)ccc(Br)c12 [BMS-386150] | > 20000 | 
O=C(c1ccsc1)N1CCN(C(=O)C2(c3cccc(Cl)c3)CC2)CC1 [Compound 484, reference compound] | > 20000 | 
COc1cnc(-c2csc(CN(C)CCCN(C)C)n2)c2[nH]cc(C(=O)C(=O)N3CCC(=C(C#N)c4ccccc4)CC3)c12 [BMS-814508] | 8 | 
COc1cnc(-n2cnc(C)n2)c2[nH]cc(C(=O)C(=O)N3CCN(C(=O)c4ccccc4)CC3)c12 [BMS-626529] | 5 | 4

Reference: publication PMC6318274, “Lattice engineering enables definition of molecular features allowing for potent small-molecule inhibition of HIV-1 entry” (Nature Communications, 2019)
